Compound potency records, mixed from different reports. Data source: NIAID ChemDB in PubChem.

Common to all: tests in culture

A number after MIC or MFC names an inhibition level or a share of isolates.

O=C1c2cccc(O)c2C(=O)c2cn[nH]c21 ; measure: inhibition ; tested at: 10 µM ; organism: Cryptosporidium parvum ; value: <10%
Oc1cccc(C=Nc2ccccc2O)c1 ; strain or isolate: 196L/03 ; measure: MIC99 ; organism: Cryptococcus gattii ; value: 8 µg/mL
O=C1COc2cc(O)ccc21 ; measure: inhibition ; tested at: 25 µM ; organism: Cryptosporidium parvum ; value: 10%
CC[C@@H](C(=O)[C@@H](C)[C@@H](O)[C@H](C)CCc1ccc(C)c(O)c1C(=O)O)[C@H]1O[C@](CC)([C@H]2CC[C@](O)(CC)[C@H](C)O2)C[C@@H]1C ; strain or isolate: IOWA ; measure: inhibition ; read by: luminescence ; tested at: 0.2 µg/mL ; cells: MDCK ; organism: Cryptosporidium parvum ; value: 39.6%
COc1cc(/C=C2\Oc3cc(O)cc(O[C@@H]4O[C@H](CO)[C@@H](O)[C@H](O)[C@H]4O)c3C2=O)cc(OC)c1O ; measure: EC50 ; organism: Cryptosporidium parvum ; value: 10–25 µM
CCOC(=O)c1c(C)nc(OCCCNc2ccnc3cc(Cl)ccc23)nc1-c1ccccc1 ; strain or isolate: 29/10893 ; measure: MIC99 ; organism: Cryptococcus gattii ; value: 4 µg/mL
NCCCC[C@H](NC(=O)[C@@H](N)CCCCN)C(=O)N[C@@H](CCC(N)=O)C(=O)N[C@@H](CCCN=C(N)N)C(=O)O ; strain or isolate: ATCC 32264 ; measure: inhibition ; tested at: 32 µM ; organism: Cryptococcus neoformans ; value: 12.5%
Cc1cc(O)c2c(c1)C(=O)c1c(cnn1C)C2=O ; measure: inhibition ; tested at: 50 µM ; organism: Cryptosporidium parvum ; value: 45%
CC(=O)OC[C@H]1O[C@@H](O[C@@H]2[C@@H](N=[N+]=[N-])[C@H](O)[C@H](O)[C@H]3OC(C)(C)O[C@H]32)[C@H](OC(C)=O)[C@@H](OC(C)=O)[C@H]1OC(C)=O ; strain or isolate: ATCC 32264 ; measure: inhibition ; read by: broth dilution / turbidity ; tested at: 31.25 µg/mL ; organism: Cryptococcus neoformans ; value: 3.23%
Oc1ccccc1C=Nc1ccccc1O ; strain or isolate: LMM 818 ; measure: MIC99 ; organism: Cryptococcus gattii ; value: 8 µg/mL
COc1ccc(/C=C2\Oc3cc(O)cc(O)c3C2=O)cc1O ; measure: inhibition ; tested at: 10 µM ; organism: Cryptosporidium parvum ; value: 7%
Cc1[nH]nc2c1C(=O)c1c(O)ccc(O)c1C2=O ; measure: inhibition ; tested at: 25 µM ; organism: Cryptosporidium parvum ; value: <10%
C[C@@H](c1nc(-c2ccc(C#N)cc2)cs1)[C@](O)(Cn1cncn1)c1cc(F)ccc1F ; strain or isolate: VG IIc ; measure: MIC90 ; read by: broth dilution ; organism: Cryptococcus gattii ; value: 0.5 µg/mL
CCn1ncc2c1C(=O)c1c(O)ccc(O)c1C2=O ; measure: inhibition ; tested at: 25 µM ; organism: Cryptosporidium parvum ; value: <10%
CC[C@H]1OC(=O)[C@H](C)[C@@H](O[C@H]2C[C@@](C)(OC)[C@@H](O)[C@H](C)O2)[C@H](C)[C@@H](O[C@@H]2O[C@H](C)C[C@H](N(C)C)[C@H]2O)[C@](C)(O)C[C@@H](C)CN(C)[C@H](C)[C@@H](O)[C@]1(C)O ; measure: inhibition ; tested at: 2 µg/mL ; cells: A549 ; organism: Cryptosporidium parvum ; value: 13.5%
Cn1ncc2c1C(=O)c1c(O)c3c(c(O)c1C2=O)CCCC3 ; measure: EC50 ; organism: Cryptosporidium parvum ; value: >100 µM
O=C1/C(=C/c2ccc(O)c(O)c2)Oc2cc(O)ccc21 ; measure: inhibition ; tested at: 10 µM ; organism: Cryptosporidium parvum ; value: 0%
Oc1ccc(O)c(C=Nc2ccccc2O)c1 ; strain or isolate: 29/10893 ; measure: MIC99 ; organism: Cryptococcus gattii ; value: 8 µg/mL
C=C/C=C/c1cc(OC)cc(=O)o1 ; measure: inhibition ; tested at: 10 µM ; organism: Cryptosporidium parvum ; value: 13%
Cc1nc(NCCCCNc2ccnc3cc(Cl)ccc23)nc(-c2ccccc2[N+](=O)[O-])c1C(=O)OC(C)C ; strain or isolate: 96806 ; measure: MIC99 ; organism: Cryptococcus neoformans ; value: 45.3 µg/mL
Cn1ncc2c1C(=O)c1c(Cl)ccc(O)c1C2=O ; measure: inhibition ; tested at: 25 µM ; organism: Cryptosporidium parvum ; value: 100%
Oc1ccccc1N=Cc1ccc(F)cc1 ; strain or isolate: LMM 818 ; measure: MIC99 ; organism: Cryptococcus gattii ; value: 5.7 µg/mL
Cc1cc(O)c2c(c1Cl)C(=O)c1cn[nH]c1C2=O ; measure: inhibition ; tested at: 100 µM ; organism: Cryptosporidium parvum ; value: <10%
CCOC(=O)c1cnc(NCCCCNc2ccnc3cc(Cl)ccc23)nc1C ; strain or isolate: ATCC 32608 ; measure: MIC99 ; organism: Cryptococcus gattii ; value: 16 µg/mL
C[C@@H](c1ncncc1F)[C@](O)(Cn1cncn1)c1ccc(F)cc1F ; strain or isolate: CBS 10514 ; measure: MIC ; read by: broth dilution ; organism: Cryptococcus gattii ; value: 0.008 µg/mL

The last 2 rows once more:

{"compound": "CCOC(=O)c1cnc(NCCCCNc2ccnc3cc(Cl)ccc23)nc1C", "strain or isolate": "ATCC 32608", "measure": "MIC99", "organism": "Cryptococcus gattii", "value": "16 µg/mL"}
{"compound": "C[C@@H](c1ncncc1F)[C@](O)(Cn1cncn1)c1ccc(F)cc1F", "strain or isolate": "CBS 10514", "measure": "MIC", "read by": "broth dilution", "organism": "Cryptococcus gattii", "value": "0.008 µg/mL"}

Lines come from different laboratories, so protocols vary. ECn: concentration that inhibits the pathogen or its effect by n%. Two numbers with a dash give a range or band. Inhibition is in % at the dose shown (toxicity tests: loss of growth or viability).